Measured values from several laboratories, pooled; numbers as filed in NIAID ChemDB.

Shared fields: whole-cell or culture tests; agent: HIV-1; method: cytopathic effect / MTT; read-out: EC50

Rows are shuffled and stem from different studies. An empty or dashed field is not shown. ECn is the concentration giving n% inhibition of infection, replication or growth.

| compound | mutations | cells | strain | result |
|---|---|---|---|---|
| Fc1ccccc1-c1nnc2sc(CC34CC5CC(CC(C5)C3)C4)nn12 | - | MT-4 | IIIB | >14.9 µg/mL |
| O=C1/C(=C/c2cc(O)c(O)c(O)c2)CC/C1=C\c1cc(O)c(O)c(O)c1 | - | MT-4 | - | 60 µM |
| N#Cc1cnn2c1nnc1ccccc12 | - | MT-4 | IIIB | >200 µM |
| O=C1C(=Cc2cc(O)c(O)c(O)c2)C(=O)c2ccccc21 | - | MT-4 | - | >19 µM |
| CCN(CC)CC1Cn2c3ccccc3c3c2c(c(C#N)c(=O)n3-c2ccc([N+](=O)[O-])cc2)O1 | - | MT-4 | LAI | 0.37 µM |
| O=C(O[C@@H]1O[C@@H]2COC(=O)c3cc(O)c(O)c(O)c3-c3c(cc(O)c(O)c3O)C(=O)O[C@H]([C@H]1O)[C@@H]2O)c1cc(O)c(O)c(O)c1 | - | MT-4 | IIIB | >25 µg/mL |
| NCCCC1CC(=O)NCN1 | - | MT-4 | IIIB | >100 µg/mL |
| CCOC(=O)c1c(Br)c(-c2ccccc2)n(COCCOC(C)=O)c1-c1ccccc1 | - | MT-4 | - | >47 µM |
| CCN1C/C(=C\c2ccc([N+](=O)[O-])c(O)c2)C(=O)/C(=C/c2ccc([N+](=O)[O-])c(O)c2)C1 | - | MT-4 | - | >4 µM |
| O=C(O[C@@H]1O[C@@H]2COC(=O)c3cc(O)c(O)c(O)c3-c3c(cc(O)c(O)c3O)C(=O)O[C@H]2[C@H](OC(=O)c2cc(O)c(O)c(O)c2)[C@H]1OC(=O)c1cc(O)c(O)c(O)c1)c1cc(O)c(O)c(Oc2c(C(=O)O[C@H]3[C@H](OC(=O)c4cc(O)c(O)c(O)c4)O[C@@H]4COC(=O)c5cc(O)c(O)c(O)c5-c5c(cc(O)c(O)c5O)C(=O)O[C@H]4[C@@H]3OC(=O)c3cc(O)c(O)c(O)c3)cc(O)c(O)c2O)c1 | - | MT-4 | IIIB | >100 µg/mL |
| O=[N+]([O-])c1ccc2c(c1)nnc1c(Br)cnn12 | - | MT-4 | IIIB | >200 µM |
| C[C@H](C[n+]1c[nH]c2c(Nc3ccccc3)nc(N)nc21)OCP(=O)(O)O | - | MT-4 | IIIB | 10.3 ± 1.4 µg/mL |
| Fc1cccc(-c2nnc3sc(CC45CC6CC(CC(C6)C4)C5)nn23)c1 | - | MT-4 | IIIB | >125 µg/mL |
| CC(=O)OCCOCn1c(-c2ccccc2)c(C#N)c([N+](=O)[O-])c1-c1ccccc1 | - | MT-4 | - | >300 µM |
| Nc1nc(NC2CCCCC2)c2ncn(CCOCP(=O)(O)O)c2n1 | - | CEM | IIIB | 20 µg/mL |
| CC(=O)c1ccc(C)cc1NC(C(N)=O)c1c(Cl)cccc1Cl | - | MT-4 | MN | 0.006 µM |
| N#Cc1c2c3c(c4ccccc4n3CCN2)n(-c2ccc([N+](=O)[O-])cc2)c1=O | - | MT-4 | LAI | 3.05 µM |
| CCOC(=O)C(C)NCc1cc2cc(S(=O)(=O)N(CC(C)C)C[C@@H](O)[C@H](Cc3ccccc3)NC(=O)O[C@H]3CO[C@H]4OCC[C@H]43)ccc2o1 | - | MT-4 | HXB2 Recombinant | 0.03 µM |
| C=CCNc1nc(N)nc2c1ncn2CCOCP(=O)(O)O | - | CEM | IIIB | >0.0032 µg/mL |
| CCc1c(Cc2cc(Cl)cc(Cl)c2)n(COC/C=C/c2ccccc2)c(=O)[nH]c1=O | RT-K103N Y181C | MT-4 | NNRTI-resistant (RT K103N Y181C) A17 | >10 µM |
| N#Cc1cnn2c1n[n+]([O-])c1cc(Cl)ccc12 | - | MT-4 | IIIB | >13 µM |
| N#CC1=CC2C(c3ccccc3N2CCN2CCOCC2)N(c2ccc(C#N)cc2)C1=O | - | MT-4 | LAI | >32 µM |
| O=[N+]([O-])c1cc(-c2ccccc2)n(COCCO)c1-c1ccccc1 | - | MT-4 | - | >46 µM |
| O=C(OCC1OC(OC(=O)c2cc(O)c(O)c(O)c2)C2OC(=O)c3cc(O)c(O)c(O)c3-c3c(cc(O)c(O)c3O)C(=O)OC2C1OC(=O)c1cc(O)c(O)c(O)c1Oc1cc2c(c(O)c1O)-c1c(cc(O)c(O)c1O)C(=O)OC1C(COC2=O)OC(OC(=O)c2cc(O)c(O)c(O)c2)C2OC(=O)c3cc(O)c(O)c(O)c3-c3c(cc(O)c(O)c3O)C(=O)OC12)c1cc(O)c(O)c(O)c1 | - | MT-4 | IIIB | 4.5 µg/mL |
| Clc1cccc(-c2nnc3sc(CC45CC6CC(CC(C6)C4)C5)nn23)c1 | - | MT-4 | IIIB | >125 µg/mL |
| O=c1cc(/C(O)=C/c2cc(CCc3ccccc3)ncn2)o[nH]1 | - | MT-4 | IIIB | >65 µM |
| CC(C)CN(C[C@@H](O)[C@H](Cc1ccccc1)NC(=O)O[C@H]1CO[C@H]2OCC[C@H]21)S(=O)(=O)c1ccc2onc(CNC(C)C)c2c1 | - | MT-4 | HXB2 Recombinant | 0.0032 µM |
| OC1/C(=C/c2ccc(Cl)c(Cl)c2)CSC/C1=C\c1ccc(Cl)c(Cl)c1 | - | MT-4 | - | >119 µM |
| [N-]=[N+]=Nc1c(-c2ccccc2)c(-c2ccccc2)n(COCCO)c1-c1ccccc1 | - | MT-4 | - | >65 µM |
| N#Cc1cnn2c1n[n+]([O-])c1ccccc12 | - | MT-4 | IIIB | >54 µM |
| O/C(=C\c1cc(CCc2ccccc2)ncn1)c1nccs1 | - | MT-4 | IIIB | >12.5 µg/mL |
| COC(=O)c1cnn2c1nnc1ccccc12 | - | MT-4 | IIIB | >200 µM |
| CN1c2ccccc2C2C1C=C(c1noc(=O)[nH]1)C(=O)N2c1ccc([N+](=O)[O-])cc1 | - | MT-4 | LAI | >32 µM |
| Clc1ccccc1-c1nnc2sc(CC34CC5CC(CC(C5)C3)C4)nn12 | - | MT-4 | IIIB | >12.4 µg/mL |
| O=C1/C(=C/c2cc(O)c(O)c(O)c2)CNC/C1=C\c1cc(O)c(O)c(O)c1 | - | MT-4 | - | 22 µM |
| N#Cc1c(N)c(-c2ccccc2)n(COCCO)c1-c1ccccc1 | - | MT-4 | - | >300 µM |
| CC1Cn2c(=O)[nH]c3cccc(c32)CN1C/C=C/c1ccccc1 | - | MT-4 | IIIB | >783 µM |
| Nc1nc(N2CCCCC2)c2ncn(CCOCP(=O)(O)O)c2n1 | - | MT-4 | IIIB | 3 µg/mL |
| NCCC[C@@H](N)CC(=O)NCN | - | MT-4 | IIIB | >100 µg/mL |
| CCOC(=O)c1c([N+](=O)[O-])c(-c2ccccc2)n(COCCOC(C)=O)c1C | - | MT-4 | - | >169 µM |
| N#Cc1c2c3c(c4ccccc4n3CC(CO)O2)n(-c2ccc([N+](=O)[O-])cc2)c1=O | - | MT-4 | LAI | 0.74 µM |
| O=C1OCC(O)C(C2OC(=O)c3cc(O)c(O)c(O)c3-c3c(O)c(O)c(O)c4c3C(=O)OC2C4c2c(O)cc(O)c3c2OC(c2ccc(O)c(O)c2)C(O)C3)OC(=O)c2cc(O)c(O)c(O)c2-c2c1cc(O)c(O)c2O | - | MT-4 | IIIB | 7.9 µg/mL |
| Nc1nc(N2CCCC2)c2ncn(CCOCP(=O)(O)O)c2n1 | - | CEM | IIIB | 2.17 µg/mL |
| Cc1cc(/C(O)=C/c2cc(CCc3ccccc3)ncn2)no1 | - | MT-4 | IIIB | 23 µM |
| CN1C/C(=C\c2ccc(O)c(O)c2)C(=O)/C(=C/c2ccc(O)c(O)c2)C1 | - | MT-4 | - | >5 µM |
| O=C(O)/C(O)=C/c1ccc(Oc2ccccc2)cn1 | - | MT-4 | IIIB | >78 µM |
| C=C(C)[C@@H]1CC[C@]2(C(=O)NCCCCCCCC(=O)N[C@@H](CC(C)C)[C@@H](O)CC(=O)O)CC[C@]3(C)[C@H](CC[C@@H]4[C@@]5(C)CC[C@H](O)C(C)(C)[C@@H]5CC[C@]43C)[C@@H]12 | - | CEM | ELI | >1 µM |
| CC(C)OCCN1Cc2cccc3[nH]c(=O)n(c23)CC1C | - | MT-4 | IIIB | >504 µM |
| N#Cc1cc2[nH]c3ccccc3c2n(-c2ccc([N+](=O)[O-])cc2)c1=O | RT-Y188L | MT-4 | F | 1.26 µM |
| C=C(Cc1ccccc1)CN1Cc2cccc3[nH]c(=O)n(c23)CC1C | - | MT-4 | IIIB | >572 µM |
| CC(=O)c1ccccc1N[C@@H](C(N)=O)c1c(Cl)cccc1Cl | - | MT-4 | IIIB | 6.5 µM |
| N#Cc1c2c3c(c4ccccc4n3CCN2CCN2CCCC2)n(-c2ccc([N+](=O)[O-])cc2)c1=O | - | MT-4 | LAI | 9.3 µM |
| O/C(=C\c1cc(CCc2ccccc2)ncn1)c1ncccn1 | - | MT-4 | IIIB | >12.5 µg/mL |
| Clc1ccc2c(c1)nnc1c(Br)cnn12 | - | MT-4 | IIIB | >200 µM |
| O=C(/C=C(\O)c1c[nH]c2ccc(Cl)cc12)c1nn[nH]n1 | - | MT-4 | IIIB | >35 µM |
| C[C@H](C[n+]1c[nH]c2c(N)nc(N)nc21)OCP(=O)(O)O | - | MT-4 | IIIB | 0.293 ± 0 µg/mL |
| O=[N+]([O-])c1c(-c2ccccc2)c(-c2ccccc2)n(COCCO)c1-c1ccccc1 | - | MT-4 | - | 37 µM |
| CCCCCCCCCCCCCCCCCCOC(=O)c1cc(O)c(O)c(O)c1 | - | MT-4 | IIIB | >3.1 µg/mL |
| O=C(O)/C(O)=C/c1cc(Oc2ccccc2)ncn1 | - | MT-4 | IIIB | >77 µM |
| CCOC(=O)c1c([N+](=O)[O-])c(-c2ccccc2)n(COCCOC(C)=O)c1-c1ccccc1 | - | MT-4 | - | >96 µM |
| Cn1c2ccccc2c2c1cc(C#N)c(=O)n2-c1ccc([N+](=O)[O-])cc1 | RT-V106A F227L | MT-4 | G | 0.06 µM |
| Clc1ccc2c(c1)nnc1ccnn12 | - | MT-4 | IIIB | >200 µM |

For reference, 9 entries again:

compound	mutations	cells	strain	result
O=C(O)/C(O)=C/c1cc(Oc2ccccc2)ncn1	-	MT-4	IIIB	>77 µM
CCc1c(Cc2cc(Cl)cc(Cl)c2)n(COC/C=C/c2ccccc2)c(=O)[nH]c1=O	RT-K103N Y181C	MT-4	NNRTI-resistant (RT K103N Y181C) A17	>10 µM
C[C@H](C[n+]1c[nH]c2c(N)nc(N)nc21)OCP(=O)(O)O	-	MT-4	IIIB	0.293 ± 0 µg/mL
N#CC1=CC2C(c3ccccc3N2CCN2CCOCC2)N(c2ccc(C#N)cc2)C1=O	-	MT-4	LAI	>32 µM
N#Cc1cc2[nH]c3ccccc3c2n(-c2ccc([N+](=O)[O-])cc2)c1=O	RT-Y188L	MT-4	F	1.26 µM
O/C(=C\c1cc(CCc2ccccc2)ncn1)c1nccs1	-	MT-4	IIIB	>12.5 µg/mL
CN1C/C(=C\c2ccc(O)c(O)c2)C(=O)/C(=C/c2ccc(O)c(O)c2)C1	-	MT-4	-	>5 µM
CC(=O)c1ccc(C)cc1NC(C(N)=O)c1c(Cl)cccc1Cl	-	MT-4	MN	0.006 µM
N#Cc1cnn2c1n[n+]([O-])c1cc(Cl)ccc12	-	MT-4	IIIB	>13 µM